The text below walks through data of paper PMC8565334, “The horizontal transfer of Pseudomonas aeruginosa PA14 ICE PAPI-1 is controlled by a transcriptional triad between TprA, NdpA2 and MvaT”.

The target of series [1] is T1, MvaT (Pseudomonas aeruginosa PA14) (UniProt A0A0H2ZGN7).
T1 sequence (looked up): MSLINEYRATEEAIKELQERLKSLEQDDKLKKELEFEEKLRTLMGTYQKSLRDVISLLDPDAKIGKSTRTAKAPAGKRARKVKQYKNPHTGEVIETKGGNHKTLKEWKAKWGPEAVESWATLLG
As to the kind of experiment: EMSA. The following applies: shift at MvaT >= 750 nM (0-2000 nM); recombinant protein; residues 1-124; protein details: His-tag removed by TEV; label: Cy5-dCTP (PCR incorporation); probe letters rebuilt from the primers and the genome.

The target in series [2] is TprA (Pseudomonas aeruginosa PA14) (UniProt A0A0H2ZFZ8). As to the kind of experiment: EMSA. The following applies: shift above 550 nM TprA (0-1200 nM); recombinant protein; protein details: His-tag removed by TEV; label: Cy5-dCTP (PCR incorporation); probe letters rebuilt from the primers and the genome.

For some assays here: Where a protein sequence is shown, tags need not be part of it. For some assays here: For at least one entry, the source does not settle the construct or the ends of the probe.

Turning to “TTGCAGGGGTTTCGGAGAAAAAACCTGTGACCCAGAACTCTTTTTCCGTATATTTTAAAGCGAAGTCTTCAACAAGCCTTACCGAGAAAGGAAACAGGATAGTACTGAATCCAGCCACTACCAAGGGGTTAACTGATGCCAGGCTTGGAAATACGGAGCCTTTCCAAGCGACTAAAACAAAGAAGAAAGCTCCCCAGAAAAATTTAGCCCAATAGTATTTAAAGCTCAATTAGCACCCCGTACTGTCTGACCTGAGTTCAACAAAGCATTCTAAAACGATTAGAACTTCTATTTTATCCATTTCTAACAACGATTCCCACCTGGCTCGCTTTAGGCGTAACATGAAAAACCTTCATCGCTCCTAATCCGTTTCCCTTACGCCTGCCTCGCTCACCCTCTGCCTAGTCATCGAGAAATCCCCTCCCCTGTTGCCGAGTATTTCCTGCTGATGCGTGGCGGATGGCCTGCCACTGTGTGCCCCATCATCAAAGGGGGCCTCAATGACCAGGCAGTTGACCAC (double strand) [ppilL2 promoter]”, the binding result in series [1] and in series [2] was “binds” each time.
